# Earlier results as cited in publication PMC4981318.
# Target: gp41 35-144 (construct B, core N-HR/C-HR) none stated (IL replaced by L6 spacer) (UniProt P04578)
# Assay: not stated in this article (quoted from refs 51 and 38)
# Conditions: pH 7.6; 150 mM NaCl at pH 7.6; not stated at low pH; 10 mM Tris at pH 7.6; not stated at pH 3.5 to 6; cited from earlier work
substance,measurement,value
"gp41 35-144 (construct B, core N-HR/C-HR) none stated (IL replaced by L6 spacer)",trimer dissociation constant,below 250 nM
